Data reported in BindingDB's records for doi:10.1021/jm900517t.

Biological target: T1, Genome polyprotein [2420-2989,M2842K,R2963Q] (Hepatitis C virus genotype 1b (isolate BK), UniProt P26663, M2842K/R2963Q)
T1 construct: 2420-2989
Experiment: HCV RNA-Dependent RNA Polymerase Assay (IC50)
Settings: pH 7.5; 23 °C

Compound: O=C1c2cccc3c(NCCO)ccc(c23)C(=O)N1c1cccc(Br)c1
- IC50: > 1000 nM
